The first assay addresses human voltage-gated sodium channel Nav1.5 (human), Q14524. The assay can be described thus: cell-based or functional assay.
Take DCLGFMRKCIPDNDKCCRPNLVCSRTHKWCKWVF (modifications not checked) [[Trp32]GpTx-1(1-34)]: the IWQ Use Nav1.5 was 6.74 µM.

DCLGFMRKCIPDNDKCCRPNLVCSRTHKWCKYAF (modifications not checked) [[Ala33]GpTx-1(1-34)] came in with an IC50, IWQ Use Nav1.5 of 18600 nM.

Molecule DCLGFMRKCIPDNDKCCRPNLVCSRTHKWCKMVF (modifications not checked) [[Met32]GpTx-1(1-34)] had an IWQ Use Nav1.5 of 6.21 µM.

DCLGFMRKCIPDNDKCCRPNLVCSRTHKWCKQVF (modifications not checked) [[Gln32]GpTx-1(1-34)] returned an IWQ Use Nav1.5 of 21 µM.

The molecule DCLGFMRKCIPDNDKCCRPNLVCSRTHKWCKGVF (modifications not checked) [[Gly32]GpTx-1(1-34)] came in with an IWQ Use Nav1.5 (µM); IC50 of peak inward current, IonWorks Quattro of 11.2 µM.

Turning to DCLGFMRKCIPDNDKCCRPNLVCSRTHKWCKTVF (modifications not checked) [[Thr32]GpTx-1(1-34)], the IWQ Use Nav1.5 amounted to 11.1 µM.

DCLGFMRKCIPDNDKCCRPNLVCSRTHKWCKHVF (modifications not checked) [[His32]GpTx-1(1-34)] came in with an IWQ Use Nav1.5 (µM); IC50 of peak inward current, IonWorks Quattro of 10.2 µM.

For KCLGFMRKCIPDNDKCCRPNLVCSRTHKWCKYVF (modifications not checked) [[Lys1]GpTx-1(1-34)], the IWQ Use Nav1.5 came to 7.29 µM.

For the molecule ECLGFMRKCIPDNDKCCRPNLVCSRTHKWCKYVF (modifications not checked) [[Glu1]GpTx-1(1-34)], the IWQ Use Nav1.5 was 14.2 µM.

DCLGFMRKCIPDNDKCCRPNLVCSRTHKWCKLVF (modifications not checked) [[Leu32]GpTx-1(1-34)]: the IWQ Use Nav1.5 was found to be 8.83 µM.

Regarding DCLGFMRKCIPDNDKCCRPNLVCSRTHKWCKNVF (modifications not checked) [[Asn32]GpTx-1(1-34)], the IWQ Use Nav1.5 (µM); IC50 of peak inward current, IonWorks Quattro was determined as 10.6 µM.

The molecule DCLGFMRKCIPDNDKCCRPNLVCSRTHKWCKVVF (modifications not checked) [[Val32]GpTx-1(1-34)] displayed an IWQ Use Nav1.5 of 14.8 µM.

Molecule DCLGFMRKCIPDNDKCCRPNLVCSRTHKWCKFVF (modifications not checked) [[Phe32]GpTx-1(1-34)] returned an IWQ Use Nav1.5 (µM); IC50 of peak inward current, IonWorks Quattro of 6.84 µM.

Regarding DCLGFMRKCIPDNDKCCRPNLVCSRTHKWCKIVF (modifications not checked) [[Ile32]GpTx-1(1-34)], the IWQ Use Nav1.5 was found to be 8.71 µM.

The next assay addresses human voltage-gated sodium channel Nav1.7 (human), Q15858. The assay is described as follows: cell-based or functional assay.
DCLGFMRKCIPDNDKCCRPNLVCSRTHKWCKWVF (modifications not checked) [[Trp32]GpTx-1(1-34)] gave an IWQ Use Nav1.7 of 0.09 µM.

Molecule DCLGFMRKCIPDNDKCCRPNLVCSRTHKWCKYAF (modifications not checked) [[Ala33]GpTx-1(1-34)] yielded an IC50, IWQ Use Nav1.7 of 330 nM.

For DCLGFMRKCIPDNDKCCRPNLVCSRTHKWCKMVF (modifications not checked) [[Met32]GpTx-1(1-34)], the IWQ Use Nav1.7 stood at 0.35 µM.

DCLGFMRKCIPDNDKCCRPNLVCSRTHKWCKQVF (modifications not checked) [[Gln32]GpTx-1(1-34)]: the IWQ Use Nav1.7 stood at 4.87 µM.

DCLGFMRKCIPDNDKCCRPNLVCSRTHKWCKGVF (modifications not checked) [[Gly32]GpTx-1(1-34)] had an IWQ Use Nav1.7 (µM); IC50 of peak inward current, IonWorks Quattro of 0.71 µM.

As for DCLGFMRKCIPDNDKCCRPNLVCSRTHKWCKTVF (modifications not checked) [[Thr32]GpTx-1(1-34)], the IWQ Use Nav1.7 was found to be 3.54 µM.

In turn, DCLGFMRKCIPDNDKCCRPNLVCSRTHKWCKHVF (modifications not checked) [[His32]GpTx-1(1-34)] showed an IWQ Use Nav1.7 (µM); IC50 of peak inward current, IonWorks Quattro of 0.6 µM.

With KCLGFMRKCIPDNDKCCRPNLVCSRTHKWCKYVF (modifications not checked) [[Lys1]GpTx-1(1-34)], the IWQ Use Nav1.7 turned out to be 0.15 µM.

As to ECLGFMRKCIPDNDKCCRPNLVCSRTHKWCKYVF (modifications not checked) [[Glu1]GpTx-1(1-34)], the IWQ Use Nav1.7 was 0.22 µM.

Molecule DCLGFMRKCIPDNDKCCRPNLVCSRTHKWCKLVF (modifications not checked) [[Leu32]GpTx-1(1-34)] registered an IWQ Use Nav1.7 of 0.12 µM.

Molecule DCLGFMRKCIPDNDKCCRPNLVCSRTHKWCKNVF (modifications not checked) [[Asn32]GpTx-1(1-34)] came in with an IWQ Use Nav1.7 (µM); IC50 of peak inward current, IonWorks Quattro of 4.86 µM.

Consider DCLGFMRKCIPDNDKCCRPNLVCSRTHKWCKVVF (modifications not checked) [[Val32]GpTx-1(1-34)], for which the IWQ Use Nav1.7 stood at 0.15 µM.

Regarding DCLGFMRKCIPDNDKCCRPNLVCSRTHKWCKFVF (modifications not checked) [[Phe32]GpTx-1(1-34)], the IWQ Use Nav1.7 (µM); IC50 of peak inward current, IonWorks Quattro was found to be 0.05 µM.

For DCLGFMRKCIPDNDKCCRPNLVCSRTHKWCKIVF (modifications not checked) [[Ile32]GpTx-1(1-34)], the IWQ Use Nav1.7 is 0.07 µM.

A further assay addresses human voltage-gated sodium channel Nav1.3 (human), Q9NY46. The assay is described as follows: cell-based or functional assay.
DCLGFMRKCIPDNDKCCRPNLVCSRTHKWCKWVF (modifications not checked) [[Trp32]GpTx-1(1-34)] had an IWQ Use Nav1.3 of 0.16 µM.

Consider DCLGFMRKCIPDNDKCCRPNLVCSRTHKWCKYAF (modifications not checked) [[Ala33]GpTx-1(1-34)], for which the IC50, IWQ Use Nav1.3 stood at 350 nM.

As to DCLGFMRKCIPDNDKCCRPNLVCSRTHKWCKMVF (modifications not checked) [[Met32]GpTx-1(1-34)], the IWQ Use Nav1.3 came out at 0.14 µM.

In turn, DCLGFMRKCIPDNDKCCRPNLVCSRTHKWCKQVF (modifications not checked) [[Gln32]GpTx-1(1-34)] displayed an IWQ Use Nav1.3 of 2.39 µM.

DCLGFMRKCIPDNDKCCRPNLVCSRTHKWCKGVF (modifications not checked) [[Gly32]GpTx-1(1-34)] showed an IWQ Use Nav1.3 (µM); IC50 of peak inward current, IonWorks Quattro of 0.62 µM.

Consider DCLGFMRKCIPDNDKCCRPNLVCSRTHKWCKTVF (modifications not checked) [[Thr32]GpTx-1(1-34)], for which the IWQ Use Nav1.3 turned out to be 3.29 µM.

In the case of DCLGFMRKCIPDNDKCCRPNLVCSRTHKWCKHVF (modifications not checked) [[His32]GpTx-1(1-34)], the IWQ Use Nav1.3 (µM); IC50 of peak inward current, IonWorks Quattro was determined as 0.75 µM.

In turn, KCLGFMRKCIPDNDKCCRPNLVCSRTHKWCKYVF (modifications not checked) [[Lys1]GpTx-1(1-34)] came in with an IWQ Use Nav1.3 of 0.07 µM.

With ECLGFMRKCIPDNDKCCRPNLVCSRTHKWCKYVF (modifications not checked) [[Glu1]GpTx-1(1-34)], the IWQ Use Nav1.3 came out at 0.15 µM.

For DCLGFMRKCIPDNDKCCRPNLVCSRTHKWCKLVF (modifications not checked) [[Leu32]GpTx-1(1-34)], the IWQ Use Nav1.3 stood at 0.08 µM.

The molecule DCLGFMRKCIPDNDKCCRPNLVCSRTHKWCKNVF (modifications not checked) [[Asn32]GpTx-1(1-34)] showed an IWQ Use Nav1.3 (µM); IC50 of peak inward current, IonWorks Quattro of 6.85 µM.

With DCLGFMRKCIPDNDKCCRPNLVCSRTHKWCKVVF (modifications not checked) [[Val32]GpTx-1(1-34)], the IWQ Use Nav1.3 amounted to 0.08 µM.

The molecule DCLGFMRKCIPDNDKCCRPNLVCSRTHKWCKFVF (modifications not checked) [[Phe32]GpTx-1(1-34)] gave an IWQ Use Nav1.3 (µM); IC50 of peak inward current, IonWorks Quattro of 0.05 µM.

DCLGFMRKCIPDNDKCCRPNLVCSRTHKWCKIVF (modifications not checked) [[Ile32]GpTx-1(1-34)]: the IWQ Use Nav1.3 was determined as 0.06 µM.

(Values after patent publication US20160304570A1, “Potent and selective inhibitors of nav1.3 and nav1.7” (published 2016).)
